Pooled drug test results. Numbers come from NIAID ChemDB, via PubChem.

Common to all: target-level tests; agent: HIV-1; target: Protease; endpoint: IC50

ICn is the concentration giving n% inhibition.

compound,method,setting,value
COc1ccc(S(=O)(=O)N(CC(C)C)C[C@@H](O)[C@H](Cc2ccccc2)NC(=O)OCc2cccnc2)cc1,,,0.009 µM
CC(C)[C@H](NC(=O)c1ccc2ccccc2n1)C(=O)N[C@@H](Cc1ccccc1)[C@H](O)CNC[C@@H](O)[C@H](Cc1ccccc1)NC(=O)OC(C)(C)C,HPLC,pH 5.5,<10 µM
C[C@@H](O)[C@H](NC(=O)COc1cccc2ccccc12)C(=O)N[C@@H](Cc1ccccc1)[C@H](O)C(=O)N1CSC[C@H]1C(=O)NC(C)(C)C,,,~0.05 µM
CC(C)CC(NC(=O)[C@H](C)NC(=O)C[C@H](O)C(CC(C)C)NC(=O)[C@@H](NC(=O)[C@H](Cc1ccc(O)cc1)NC(=O)OCc1ccccc1)C(C)C)[C@@H](O)CC(=O)NCCCCNc1ccn([C@H]2CS[C@@H](CO)O2)c(=O)n1,HPLC,,0.6 µM
Cc1cccc(C)c1OCC(=O)NC(=O)[C@@H]1CCCN1C[C@@H](O)[C@H](Cc1ccccc1)NC(=O)COc1c(C)cccc1C,fluorescence,,0.0096 µM
CC(C)(C)OC(=O)N[C@@H](Cc1ccccc1)[C@H](O)CNC[C@@H](O)[C@H](Cc1ccccc1)NC(=O)OC(C)(C)CCCNC(=O)OCc1ccccc1,HPLC,pH 5.5,<10 µM
COc1ccc(S(=O)(=O)N(CC(C)C)C[C@@H](O)[C@H](Cc2ccccc2)NC(=O)c2ccc(CS(C)(=O)=O)cc2)cc1,,,<1 µM
Cc1ccccc1CNC(=O)[C@H]1N(C(=O)[C@@H](O)[C@H](Cc2ccccc2)NC(=O)CC(C)(C)C(=O)O)CSC1(C)C,,,<5 µM
CC(C)CC(NC(=O)[C@H](C)NC(=O)C[C@H](O)C(CC(C)C)NC(=O)[C@@H](NC(=O)[C@H](Cc1ccc(O)cc1)NC(=O)OCc1ccccc1)C(C)C)[C@@H](O)CC(=O)NCCCCNc1ccn([C@H]2CS[C@@H](CO[Si](c3ccccc3)(c3ccccc3)C(C)(C)C)O2)c(=O)n1,HPLC,,1 µM
Cc1cn([C@@H]2C[C@@H](N=[N+]=[N-])[C@H](COC(=O)CCCC(=O)N[C@@H](Cc3ccccc3)[C@H](O)C(=O)N3CSC[C@H]3C(=O)NC(C)(C)C)O2)c(=O)[nH]c1=O,,,>5 µM
CC(C)(C)NC(=O)[C@H]1N(C(=O)[C@@H](O)[C@H](Cc2ccccc2)NC(=O)[C@H](CC(N)=O)NC(=O)OCOc2cccc3ccccc23)CSC1(C)C,,,<0.05 µM
COc1cc(CN2C(=O)N(Cc3ccc(O)c(OC)c3)N(C(=O)CCc3ccccc3)C[C@@H](O)[C@H]2Cc2ccccc2)ccc1O,fluorescence,,<0.0005 µM
COc1ccc(S(=O)(=O)N(CC(C)C)C[C@@H](O)[C@H](Cc2ccccc2)NC(=O)c2ccncc2)cc1,,,0.018 µM
CC(C)(C)NC(=O)[C@H]1N(C(=O)[C@@H](O)[C@H](Cc2ccccc2)NC(=O)[C@H](CC(N)=O)NC(=O)C/C=C/c2ccccc2)CSC1(C)C,,,<0.05 µM
COC(=O)[C@H](Cc1ccccc1)NC(=O)[C@H](CCC(=O)OCC1CCCCC1)NC(=O)C[C@H](O)C(CC(C)C)NC(=O)[C@@H](NC(=O)[C@H](Cc1c[nH]c2ccccc12)NC(=O)CCCCC(=O)Nc1ccn([C@H]2CS[C@@H](CO[Si](c3ccccc3)(c3ccccc3)C(C)(C)C)O2)c(=O)n1)C(C)C,HPLC,,2 µM
CC(=O)NC(=O)[C@H](Cc1c[nH]c2ccccc12)NC(=O)[C@@H](NC(=O)[C@@H]1CCCN1C[C@@H](O)[C@H](Cc1ccccc1)NC(=O)[C@@H](NC(=O)[C@H](Cc1c[nH]c2ccccc12)NC(C)=O)C(C)C)C(C)C,fluorescence,,0.00006 µM
CON[C@H](C(=O)NC(=O)[C@H]1N(C(=O)[C@@H](O)[C@H](Cc2ccccc2)NC(=O)[C@@H](NC(=O)[C@H](C)NC(C)=O)C(C)C)CSC1(C)C)C(C)C,,,0.008 µM
CC(C)(C)NC(=S)N[C@@H](Cc1ccccc1)[C@H](O)CNC[C@@H](O)[C@H](Cc1ccccc1)NC(=O)OC(C)(C)C,HPLC,pH 5.5,<10 µM
N/C(=N/O)c1cccc(CN2C(=O)N(Cc3ccccc3)N(C(=O)CCc3ccccc3)C[C@@H](O)[C@H]2Cc2ccccc2)c1,fluorescence,pH 7.0,<0.0005 µM
Cc1cn([C@@H]2C[C@@H](N=[N+]=[N-])[C@H](COC(=O)CC(C)(C)CC(=O)N[C@@H](Cc3ccccc3)[C@H](O)C(=O)N3CSC[C@H]3C(=O)NC(C)(C)C)O2)c(=O)[nH]c1=O,,,>5 µM
CON[C@H](C(=O)NC(=O)[C@H]1N(C(=O)[C@@H](O)[C@H](Cc2ccccc2)NC(=O)[C@@H](NC(=O)[C@H](Cc2c[nH]c3ccccc23)NC(=O)Oc2ccccc2)C(C)C)CSC1(C)C)C(C)C,,,0.025 µM
COc1cc(CN2C(=O)N(Cc3ccc(O)c(OC)c3)N(C(=O)CCc3ccc(O)cc3)C[C@@H](O)[C@H]2Cc2ccccc2)ccc1O,fluorescence,,<0.0005 µM
CC(C)CCN(C[C@@H](O)[C@H](Cc1ccccc1)NC(=O)[C@H](Cc1cnc[nH]1)NC(=O)c1ccc2ccccc2n1)S(=O)(=O)c1ccccc1,,,0.003 µM
N/C(=N/O)c1cccc(CN2C(=O)N(Cc3ccc4[nH]ncc4c3)N(C(=O)CCc3ccccc3)C[C@@H](O)[C@H]2Cc2ccccc2)c1,fluorescence,pH 7.0,<0.0005 µM
Cc1ccccc1CNC(=O)[C@H]1N(C(=O)[C@@H](O)[C@H](Cc2ccccc2)NC(=O)C(C)C(C)C(=O)O)CSC1(C)C,,,<5 µM
CC[C@@H](C)[C@H](NC(=O)[C@H](CCC(N)=O)NC(=O)[C@@H]1CCCN1C(=O)[C@@H](O)[C@H](Cc1ccccc1)NC(=O)[C@H](CC(N)=O)NC(=O)CCc1ccccc1)C(N)=O,,,>5 µM
CC(C)[C@H](NC(=O)[C@H](C)NC(=O)Oc1ccccc1)C(=O)N[C@@H](Cc1ccccc1)[C@@H](O)[C@H](O)[C@H](Cc1ccccc1)NC(=O)Oc1ccccc1,,,0.1 µM
CC(C)(C)NC(=O)[C@@H]1CSCN1C(=O)[C@@H](O)[C@H](Cc1ccccc1)NC(=O)[C@@H](NC(=O)COc1cccc2ccccc12)C(C)(C)C,,,<0.05 µM
CC(C)C[C@H](NC(=O)[C@H](Cc1ccccc1)NC(=O)C[C@H](O)[C@H](Cc1ccccc1)NC(=O)OC(C)(C)C)C(=O)N[C@@H](Cc1ccccc1)C(=O)Nc1ccn([C@H]2CS[C@@H](CO[Si](c3ccccc3)(c3ccccc3)C(C)(C)C)O2)c(=O)n1,HPLC,,30 µM
CC(C)[C@H](NC(=O)[C@H](C)NS(=O)(=O)c1ccccc1)C(=O)N[C@@H](Cc1ccccc1)[C@@H](O)[C@H](O)[C@H](Cc1ccccc1)NC(=O)[C@@H](NC(=O)[C@H](C)NS(=O)(=O)c1ccccc1)C(C)C,,,0.046 µM
CC(C)CCN(C[C@@H](O)[C@H](Cc1ccccc1)NC(=O)[C@@H](NC(=O)CN(C)C)C(C)(C)C)S(=O)(=O)c1ccccc1,,,0.002 µM
CC[C@@H](C)[C@H](NC(=O)[C@@H]1CCCN1C(=O)[C@@H](O)[C@H](Cc1ccccc1)NC(=O)[C@H](CC(N)=O)NC(=O)c1ccccn1)C(=O)N[C@H](C(N)=O)C(C)C,,,<5 µM
CC(C)CN(C[C@@H](O)[C@H](Cc1ccccc1)NC(=O)OCc1ccccc1)S(C)(=O)=O,,,<10 µM
CC(C)[C@H](NC(=O)OC(C)(C)C)C(=O)N[C@@H](Cc1ccccc1)[C@H](O)CNC[C@@H](O)[C@H](Cc1ccccc1)NC(=O)OC(C)(C)C,HPLC,pH 5.5,~10 µM
CC(C)CCN(C[C@@H](O)[C@H](Cc1ccccc1)NC(=O)OCc1ccccc1)S(=O)(=O)c1ccc([N+](=O)[O-])cc1,,,0.01 µM
CC(C)[C@H](NC(=O)[C@H](C)NS(=O)(=O)c1ccc(Br)cc1)C(=O)N[C@@H](Cc1ccccc1)[C@@H](O)[C@H](O)[C@H](Cc1ccccc1)NC(=O)[C@@H](NC(=O)[C@H](C)NS(=O)(=O)c1ccc(Br)cc1)C(C)C,,,0.07 µM
CC(C)[C@H](NC(=O)[C@@H](NC(=O)[C@@H]1CCCN1C(=O)[C@@H](O)[C@H](Cc1ccccc1)NC(=O)[C@H](CC(N)=O)NC(=O)CCc1ccccc1)C(C)C)C(N)=O,,,<5 µM
CC(C)C[C@H](NC(=O)[C@H](Cc1ccccc1)NC(=O)C[C@H](O)[C@H](Cc1ccccc1)NC(=O)OC(C)(C)C)C(=O)N[C@@H](Cc1ccccc1)C(=O)Nc1ccn([C@H]2CS[C@@H](CO)O2)c(=O)n1,HPLC,,30 µM
CC(C)[C@H](NC(=O)[C@H](C)NC(=O)Oc1ccccc1)C(=O)NC(=O)[C@H]1N(C(=O)[C@@H](O)[C@H](Cc2ccccc2)NC(=O)[C@@H](NC(=O)[C@H](C)NC(=O)Oc2ccccc2)C(C)C)CSC1(C)C,,,0.02 µM

The first 4 rows once more:

{"compound": "COc1ccc(S(=O)(=O)N(CC(C)C)C[C@@H](O)[C@H](Cc2ccccc2)NC(=O)OCc2cccnc2)cc1", "value": "0.009 µM"}
{"compound": "CC(C)[C@H](NC(=O)c1ccc2ccccc2n1)C(=O)N[C@@H](Cc1ccccc1)[C@H](O)CNC[C@@H](O)[C@H](Cc1ccccc1)NC(=O)OC(C)(C)C", "method": "HPLC", "setting": "pH 5.5", "value": "<10 µM"}
{"compound": "C[C@@H](O)[C@H](NC(=O)COc1cccc2ccccc12)C(=O)N[C@@H](Cc1ccccc1)[C@H](O)C(=O)N1CSC[C@H]1C(=O)NC(C)(C)C", "value": "~0.05 µM"}
{"compound": "CC(C)CC(NC(=O)[C@H](C)NC(=O)C[C@H](O)C(CC(C)C)NC(=O)[C@@H](NC(=O)[C@H](Cc1ccc(O)cc1)NC(=O)OCc1ccccc1)C(C)C)[C@@H](O)CC(=O)NCCCCNc1ccn([C@H]2CS[C@@H](CO)O2)c(=O)n1", "method": "HPLC", "value": "0.6 µM"}

An empty or dashed field is not shown. Conditions beyond the fields shown may differ between rows.